# Details: rats; 4 times daily administration for 7 days
substance,measurement,value
astodrimer sodium [SPL7013],systemic absorption after application to the nasal mucosa,not absorbed systemically
